Measured values from several laboratories, pooled; numbers as filed in NIAID ChemDB.

Shared fields: tests in culture; organism: HIV-2; cells: CEM; measure: EC50

Conditions beyond the fields shown may differ between rows. An empty or dashed field is not shown. ECn: concentration that inhibits the pathogen or its effect by n%.

compound	strain or isolate	read by	value
CCCCCCCCCCCC(=O)Oc1ccc(COP(=O)(OCc2ccc(OC(C)=O)cc2)OP(=O)(O)OCC2C=C[C@H](n3cc(C)c(=O)[nH]c3=O)O2)cc1	ROD	syncytia	1.05 µM
CC1(C)[C@@H](CCO)C[C@H]1n1cnc2c(N)ncnc21		cytopathic effect	>20 µg/mL
O=c1ccn([C@H]2CCC[C@@H]2CO)c(=O)[nH]1		cytopathic effect	>100 µg/mL
CCOC(=O)Cc1c(N)nc(N)n(CCOCP(=O)(O)O)c1=O	ROD	syncytia	110 µM
CC1(CO)CCC(Cn2cnc3c(Cl)nc(N)nc32)C1(C)C		cytopathic effect	>4 µg/mL
Nc1ccnc(OC[C@H]2CC[C@@H](COCc3ccccc3)O2)n1	ROD	syncytia	>250 µM
Cc1ccc(C)c(C(C)S(=O)(=O)c2c(C)ccc[n+]2[O-])c1	EHO	syncytia	>20 µg/mL
Nc1cc(OCCOCP(=O)(O)O)nc(N)n1	ROD	syncytia	1.6 µM
OC[C@H]1O[C@H](c2cc(Cl)c(F)cc2F)C[C@@H]1O	ROD	syncytia	>250 µM
Cc1cn([C@@H]2OC3CN[C@@]4(OCC(C)C)CS(=O)(=O)O[C@@]34[C@H]2O[Si](C)(C)C(C)(C)C)c(=O)[nH]c1=O	ROD		>10 µM
CCCCC(=O)c1ccc2c(c1)sc(=O)n2CC=O	ROD	syncytia	>8 µg/mL
Nc1ccc2c(c1)C(=O)N(C13CC4CC(CC(C4)C1)C3)C2=O	ROD	syncytia	27 µM
Cc1cn(C2OC(CO[Si](C)(C)C(C)(C)C)C3(OS(=O)(=O)C=C3N)C2O[Si](C)(C)C(C)(C)C)c(=O)n(/C=C\CO)c1=O	ROD	syncytia	>25 µM
O=C(c1cccc(F)c1)c1ccc2c(c1)oc(=O)n2CCN1CCOCC1	ROD	syncytia	>8 µg/mL
CC1(CO)CCC(Cn2cnc3c(N)nc(N)nc32)C1(C)C		cytopathic effect	14 µg/mL
C#C[C@@H](O)C1=C[C@@H](n2cnc3c(N)ncnc32)[C@H](O)[C@@H]1O		cytopathic effect	>40 µg/mL
Nc1nc(N)nc(OC[C@H]2CC[C@@H](CO)O2)n1	ROD	syncytia	>250 µM
O=C(c1cccc(F)c1)c1ccc2[nH]c(=O)sc2c1	ROD	syncytia	>40 µg/mL
O=c1ccn(C[C@H]2CCC[C@H]2CO)c(=O)[nH]1		cytopathic effect	>100 µg/mL
Cc1cccc(C)c1NC(=O)c1ccc([N+](=O)[O-])cc1	ROD	syncytia	>29.3 µM
COC(=O)[C@H](C)NP(=O)(OC[C@@H]1C=C[C@H](n2cnc3c(NC4CC4)nc(N)nc32)C1)Oc1ccccc1	ROD	syncytia	0.07 µM
CCOC(=O)[C@H](C)NP(=O)(OC[C@@H]1C=CC(n2ccc(=O)[nH]c2=O)O1)Oc1cccc2ccccc12	ROD	syncytia	>50 µM
CCO[C@]12CS(=O)(=O)O[C@@]13[C@@H](CN2)O[C@@H](Sc1ccccc1)[C@@H]3O[Si](C)(C)C(C)(C)C	ROD		>50 µM
CCCCCCCC(=O)Oc1ccc(COP(=O)(OCc2ccc(OC(=O)CCCC)cc2)OP(=O)(O)OCC2C=C[C@H](n3cc(C)c(=O)[nH]c3=O)O2)cc1	ROD	syncytia	1.05 µM
Cc1cccc(C(=O)c2ccc3c(c2)sc(=O)n3C)c1	ROD	syncytia	<1.6 µg/mL
COc1cc(OC[C@H]2CC[C@@H](CO)O2)ncn1	ROD	syncytia	>50 µM
Cc1cn(C2OC(CO[Si](C)(C)C(C)(C)C)C3(OS(=O)(=O)C=C3N)C2O[Si](C)(C)C(C)(C)C)c(=O)n(CCCNC(=O)c2ccc(C(=O)c3ccccc3)cc2)c1=O	ROD	syncytia	>50 µM
CCCOC12CS(=O)(=O)OC13[C@@H](CN2)O[C@@H](n1cc(C)c(=O)[nH]c1=O)[C@@H]3O[Si](C)(C)C(C)(C)C	ROD		>10 µM
Nc1nc2c(ncn2[C@H]2C=C[C@@H](CO)C2)c(=O)[nH]1	ROD	syncytia	2.3 µM
Nc1nc(N)n(CCOCP(=O)(O)O)c(=O)c1C1CC1	ROD	syncytia	≥300 µM
O=C(c1cccc(F)c1)c1ccc2c(c1)sc(=O)n2Cc1ccccc1	ROD	syncytia	>1.6 µg/mL
CC(=O)Oc1ccc(COP(=O)(OCc2ccc(OC(=O)c3ccc(C(F)(F)F)cc3)cc2)OP(=O)(O)OCC2C=C[C@H](n3cc(C)c(=O)[nH]c3=O)O2)cc1	ROD	syncytia	1.05 µM
C[C@H](NP(=O)(OC[C@@H]1C=C[C@H](n2ccc(=O)[nH]c2=O)O1)Oc1ccccc1)C(=O)OCc1ccccc1	ROD	syncytia	>50 µM
Cc1ccc(C)c(CS(=O)(=O)c2cccc[n+]2[O-])c1	EHO	cytopathic effect	14 µg/mL
Nc1nc(N)n(CCOCP(=O)(O)O)c(=O)c1CC(=O)O	ROD	syncytia	≥300 µM
Cc1cc(C)c(CS(=O)c2cccc[n+]2[O-])c(C)c1	ROD	cytopathic effect	1.5 µg/mL
C#C[C@H](O)C1=C[C@@H](n2cnc3c(N)ncnc32)[C@H](O)[C@@H]1O		cytopathic effect	>40 µg/mL
CC1(C)[C@@H](CCO)C[C@H]1n1nnc2c(=O)[nH]cnc21		cytopathic effect	>20 µg/mL
Nc1ccc([C@H]2CC(=O)[C@@H](CO)O2)c(F)c1			>250 µM
COc1ccc2c(c1)C(=O)N(c1c(C)cccc1C)C2=O	ROD	syncytia	>140 µM
COc1ccc(OP(=O)(N[C@@H](C)C(=O)OCc2ccccc2)OC[C@@H]2CCC(n3ccc(=O)[nH]c3=O)O2)c2ccccc12	ROD	syncytia	21 µM
CC1(CO)CCC(Cn2cnc3c(=O)[nH]c(N)nc32)C1(C)C		cytopathic effect	>100 µg/mL
Cc1ccc(C(C)S(=O)(=O)c2c(C)ccc[n+]2[O-])c(C)c1	ROD	cytopathic effect	>100 µg/mL
Cc1ccc2c(c1)C(=O)N(C13CC4CC(CC(C4)C1)C3)C2=O	ROD	syncytia	>336 µM
CCC(=O)c1ccc2c(c1)sc(=O)n2CCN1CCCCC1	ROD	syncytia	>40 µg/mL
Nc1nc(Cl)cc(OC[C@@H]2O[C@H](COCc3ccccc3)[C@@H](OCc3ccccc3)[C@H]2OCc2ccccc2)n1	ROD	syncytia	>10 µM
O=C1c2ccc(O)cc2C(=O)N1C12CC3CC(CC(C3)C1)C2	ROD	syncytia	>13.3 µM
CC1(C)[C@@H](CCO)C[C@H]1n1cnc2c(N)nc(N)nc21		cytopathic effect	>20 µg/mL
CC[C@@H](O)C1=C[C@@H](n2cnc3c(N)ncnc32)[C@H](O)[C@@H]1O		cytopathic effect	>200 µg/mL
CCO[C@]12CS(=O)(=O)O[C@@]13[C@@H](CN2)O[C@@H](n1cc(C)c(=O)[nH]c1=O)[C@@H]3OC(C)=O	ROD		>250 µM
Cc1ccc(C)c(CS(=O)(=O)c2ccccn2)c1	ROD	syncytia	>20 µg/mL
Cc1cn(C2OC(CO[Si](C)(C)C(C)(C)C)C3(OS(=O)(=O)C=C3N)C2O[Si](C)(C)C(C)(C)C)c(=O)n(CC2CO2)c1=O	ROD	syncytia	>50 µM
Cc1cn([C@H]2C=C[C@@H](CO)O2)c(=O)[nH]c1=O	ROD	syncytia	0.77 µM
O=c1[nH]c(=O)n([C@H]2CCC[C@H]2CO)cc1I		cytopathic effect	12.5 µg/mL
CCCCC(=O)c1ccc2c(c1)oc(=O)n2CCN1CCCCC1	ROD	syncytia	>8 µg/mL
C[C@H](Cn1cnc2c(N)ncnc21)OCP(=O)(O)O	ROD	syncytia	1.4 µM
Cc1cn([C@@H]2O[C@@H]3CN[C@@]4(C#N)CS(=O)(=O)O[C@@]34[C@H]2O)c(=O)[nH]c1=O	ROD		>250 µM
CCCCCCCCCC[N+](C)(C)CCCNCc1c(O)cc2c(c1O)-c1cc(ccc1O)[C@H]1NC(=O)[C@@H]3NC(=O)C4NC(=O)[C@@H](Cc5ccc(c(Cl)c5)Oc5cc3cc(c5O)Oc3ccc(cc3Cl)[C@@H](O)[C@H](NC1=O)C(=O)N[C@@H]2C(=O)O)NC(=O)[C@H](N)c1ccc(O)c(c1)Oc1cc(O)cc4c1	EHO	syncytia	6.8 µM
Nc1nc(N)c(Br)c(OCCOCP(=O)(O)O)n1	ROD	syncytia	9.5 µM
Nc1cc(OC[C@H]2CC[C@@H](COCc3ccccc3)O2)nc(N)n1	ROD	syncytia	>250 µM
Cc1ccc(C)c(CSc2c(Cl)ccc[n+]2[O-])c1	ROD	cytopathic effect	>20 µg/mL
Cc1ccc(C(C)S(=O)(=O)c2c(C)ccc[n+]2[O-])c(C)c1	EHO	syncytia	>100 µg/mL
Nc1cc(OC[C@H]2CC[C@@H](CO)O2)ncn1	ROD	syncytia	>250 µM

9 of the rows above, restated:

compound	strain or isolate	read by	value
Nc1cc(OC[C@H]2CC[C@@H](COCc3ccccc3)O2)nc(N)n1	ROD	syncytia	>250 µM
CC1(CO)CCC(Cn2cnc3c(N)nc(N)nc32)C1(C)C		cytopathic effect	14 µg/mL
CC1(CO)CCC(Cn2cnc3c(=O)[nH]c(N)nc32)C1(C)C		cytopathic effect	>100 µg/mL
O=c1ccn([C@H]2CCC[C@@H]2CO)c(=O)[nH]1		cytopathic effect	>100 µg/mL
CCCCC(=O)c1ccc2c(c1)oc(=O)n2CCN1CCCCC1	ROD	syncytia	>8 µg/mL
O=C(c1cccc(F)c1)c1ccc2c(c1)sc(=O)n2Cc1ccccc1	ROD	syncytia	>1.6 µg/mL
CCO[C@]12CS(=O)(=O)O[C@@]13[C@@H](CN2)O[C@@H](n1cc(C)c(=O)[nH]c1=O)[C@@H]3OC(C)=O	ROD		>250 µM
Cc1ccc(C)c(CSc2c(Cl)ccc[n+]2[O-])c1	ROD	cytopathic effect	>20 µg/mL
C#C[C@@H](O)C1=C[C@@H](n2cnc3c(N)ncnc32)[C@H](O)[C@@H]1O		cytopathic effect	>40 µg/mL